In PMC6221947 (Structure (London, England : 1993), 2018) one finds Km and kcat data, which are given here for two substances.

In this data set the test system is NCCCCNCCCN
In words: purified protein. The settings on record: 1 mM NAD+, 15 μM TbeIF5A, 5 nM DHS; labelled compound; dead-site mutant.

With “TbDHSc:DHSp (Trypanosoma brucei brucei TREU927; Q4GZD1:H266A)”, the Km is 12 ± 1.8 µM and the kcat turned out to be 0.081 s⁻¹.

Regarding “TbDHSc:DHSp (Trypanosoma brucei brucei TREU927; Q38BX0:E166A)”, the Km turned out to be 11 ± 1.5 µM and the kcat was 0.12 s⁻¹.

Usually Km stands for the substrate concentration at which the rate is half of its maximum. As a reminder, the kcat is the number of substrate molecules converted per active site and unit of time at saturation.
